PubChem BioAssay AID1224833 | University of Georgia, 2016
Screen: 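Human genes whose knock-down alters rotavirus replication in monkey cells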 (primary screen). System: monkey MA104 kidney cells. Reagent: siRNA pool against human genes, 50 nM. Timing: 48 h knock-down before infection; read 24 h after infection. Conditions: infection with rotavirus strain RV3 two days after transfection; infectious dose for this stage not given. Measurement: 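Rotavirus antigen per well by fluorescent immunoassay, normalised to non-targeting control wells on each plate and given as a standard z-score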. Direction: z-score vs non-targeting control: higher = more rotavirus replication than with non-targeting control. Rule for the call: In these data the active calls have z-score vs non-targeting control at about -1 or lower, or at about 1 or higher. Calls: active = z-score beyond 1 either way; inactive = z-score within 1 of zero.
The deposit covers about 12,000 reagents; below is a random part of them. Of all reagents, about 5,600 (46%) are marked active. 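Active calls cover z-scores past 1 in both directions, so they include lowered as well as raised rotavirus replication.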 No sequences are given here.

gene,z-score vs non-targeting control,Outcome
ITSN2,-0.705,inactive
IL2,1.22,active
ETFBKMT,-0.526,inactive
OR7G3,-0.807,inactive
SVEP1,0.575,inactive
NPM2,-1.23,active
H1-6,0.232,inactive
CYP24A1,-1.57,active
CT47A8,-0.603,inactive
SLC75A1,-1.92,active
UNG,0.328,inactive
AMTN,1.02,active
COIL,-0.0261,inactive
LZTS3,-1.76,active
TNFAIP2,-2.08,active
COX18,1.53,active
PARD6A,-1.22,active
RPN2,1.67,active
PAICS,-1.48,active
FLNC,0.987,inactive
H4C12,-1.33,active
MCF2,-1.01,active
SEBOX,0.13,inactive
TALDO1,-1.5,active
SLC6A4,0.614,inactive
SP6,0.292,inactive
HMGN3,1.41,active
OR4A16,-1.8,active
OR5B3,0.702,inactive
TMEM141,-0.579,inactive
SLITRK3,-2.61,active
AADAT,1.07,active
SOX10,1.35,active
EBF2,-1.85,active
ANAPC7,0.94,inactive
MCC,-1.13,active
OR2T4,-0.658,inactive
RHOB,-1.61,active
CWF19L2,0.0062,inactive
MBIP,0.536,inactive
PRR5-ARHGAP8,-1.09,active
SNAPC5,-0.0235,inactive
GRHL3,0.561,inactive
METRN,-0.354,inactive
PDCD11,-1.13,active
HSPA9,-0.81,inactive
GOT1L1,-1.57,active
TERF2,-0.247,inactive
USP34,0.798,inactive
KIAA0825,-0.586,inactive
PRR7,1.18,active
RANBP6,-0.155,inactive
ADCY8,-0.663,inactive
SNRPD3,0.49,inactive
FRY,1.4,active
SLC25A23,-2.2,active
TNFAIP6,-0.527,inactive
HES3,-1.72,active
ASPN,-2.23,active
BKGD,-1.1,active
GRB7,-0.69,inactive
PURB,1.33,active
PRRG2,0.229,inactive
CCDC24,0.76,inactive
TSPOAP1,0.593,inactive
TNFSF13,-1.12,active
CIZ1,-1.97,active
NT5DC2,0.516,inactive
HOXB13,-0.748,inactive
TBC1D13,-0.217,inactive
HAGHL,-0.692,inactive
ECSIT,-1.13,active
RAB3A,-2.04,active
CST9L,0.168,inactive
THUMPD1,-0.969,inactive
FCGR3A,-3.14,active
DAB2IP,0.655,inactive
PRR15,1.26,active
JCHAIN,1.77,active
STEAP1,1.32,active
CCNH,-0.578,inactive
MATR3,0.428,inactive
OSBPL1A,-0.264,inactive
MAPRE3,-3.31,active
RPL39L,0.0591,inactive
TFRC,0.516,inactive
DCP1B,0.289,inactive
PCDHB1,0.694,inactive
OXA1L,-1.14,active
NSUN3,-1.12,active
GRWD1,-1.01,active
SIRT4,0.764,inactive
GATD1,-1.53,active
ZFR,0.915,inactive
FAM161B,0.0732,inactive
COL14A1,-0.777,inactive
TOX2,0.852,inactive
HMGB3,-0.451,inactive
TM6SF1,-0.0679,inactive
SLC26A10P,-1.54,active
PSMD13,0.73,inactive
RAD21,-2.26,active
USP50,0.171,inactive
CLVS2,-0.512,inactive
PMS2,1.96,active
SLC19A4P,-1.61,active
SF3A1,0.691,inactive
SPRR1B,-0.263,inactive
ARMC9,0.825,inactive
SAFB2,0.255,inactive

A few values from the list:
Under “Outcome”, TERF2 shows inactive
Result of RANBP6 in “z-score vs non-targeting control”: -0.155
Entry of LZTS3 in “z-score vs non-targeting control”: -1.76
RAD21, z-score vs non-targeting control = -2.26
Under “z-score vs non-targeting control”, PRR5-ARHGAP8 has -1.09
MCC, Outcome → active
